Results on 3 molecules are retold here after paper PMC10783087 (Microbiology Spectrum, 2023).

The subject of series [1] is Mtb. It counts as cell-based, Mycobacterium tuberculosis. The note with it: for Hillslope: in vitro Mtb dose-response curve.
Series [2] deals with Mtb CDC1551 FFluc reporter strain in primary bone marrow-derived macrophages. The class given is cell-based, Mycobacterium tuberculosis.

Structures are written as SMILES.

Molecule `CC(C)N(C(=O)CNc1nc2cc(Cl)c(Cl)cc2[nH]1)C(C)C` [MSU-43165] gave a Hillslope in series [1] of 4.4.

Take `CC(C)N(C(=O)COc1nc2cc(Cl)c(Cl)cc2[nH]1)C(C)C` [MSU-43170]: in series [2], the “enhanced intra-macrophage activity compared to in vitro activity” value stood at 3.3 fold. In addition, in series [1] (in vitro Mtb EC50 compared with NITD-304 and NITD-349), the “fold lower in potency than NITD-304 and NITD-349” value is recorded as 3- to 5 fold. Besides, the “fold higher in potency than SQ109” value in series [1] (in vitro Mtb EC50 compared with SQ109) was ~ 10 fold. This molecule also had a Hillslope in series [1] of 2.7.

`CC(C)N(C(=O)CSc1nc2ccc(Cl)cc2[nH]1)C(C)C` [HC2099] had a Hillslope in series [1] of 2.6.
